Anti-infective test results gathered from many reports (values: NIAID ChemDB through PubChem).

All rows: growth or infection tests; species: Aspergillus flavus; read by: broth dilution; read-out: MIC

Two numbers with a dash give a range or band. Neighbouring rows are from separate reports. An empty or dashed field is not shown.

smiles	strain or isolate	setting	value
CC1CCC2(OC1)OC1CC3C4CCC5C[C@@H](OC6OC(CO)C(OC7OC(CO)C(O)C(OC8CC(OC9OC(CO)C(O)C(O)C9O)C(O)C(CO)O8)C7OC7OC(CO)C(O)C(O)C7O)C(O)C6O)[C@H](O)C[C@]5(C)C4CC[C@]3(C)C1[C@@H]2C	-	-	30 µg/mL
CCCC[C@@H](C)/C=C(C)/C=C(\C)C(=O)N/C(=C/[C@@](C)(O)/C=C/C=C/C=C/C(=O)NC1=C(O)CCC1=O)C(=O)[C@@H]1CO1	1	-	200 µM
C[C@@H](c1ncncc1F)[C@](O)(Cn1cncn1)c1ccc(F)cc1F	-	-	0.25 µg/mL
C[C@H]1[C@H](O)[C@@H](C)/C=C/C=C/C=C/C=C/C=C/C=C/C=C/[C@H](O[C@@H]2O[C@H](C)[C@@H](O)[C@H](N)[C@@H]2O)C[C@@H]2O[C@](O)(C[C@@H](O)C[C@@H](O)CC[C@H](O)[C@@H](O)C[C@@H](O)CC(=O)O[C@H]1C)C[C@H](O)[C@H]2C(=O)O	204304	-	0.25 µg/mL
COc1cc(O)c(C(=O)O[C@@H]2C[C@]3(C)[C@H]4[C@@H](O)C(C)(C)C[C@@]4(O)C=C(C=O)[C@]23O)c(C)c1Cl	Plpa59	-	>250 µg/mL
COc1cc(/C=C/C(C)=O)ccc1O	MTCC 277	-	963 µM
CCOC(=O)c1c(N)oc2c(C)cc(O)c(C)c12	KCCM 11899	-	25 µg/mL
CC(C)S(=O)(=O)N1CCN(c2cnn(-c3cc(F)cc(F)c3)c(=O)c2OC2CCC(F)C2)CC1	ND83	-	0.125 µg/mL
CC(C)=CCC[C@@H](C)CC=O	TISTR 3041	-	4050 µg/mL
Cc1nc2c(s1)C(=O)C(Nc1ccc(C#N)cc1)=C(Cl)C2=O	KCCM 11899	-	6.3 µg/mL
CCC(C)CC(C)CCCCCCCCC(=O)N[C@H]1C[C@@H](O)[C@H](NCCN)NC(=O)[C@@H]2[C@@H](O)CCN2C(=O)[C@H]([C@H](O)CCN)NC(=O)[C@H]([C@H](O)[C@@H](O)c2ccc(O)cc2)NC(=O)[C@@H]2C[C@@H](O)CN2C(=O)[C@H]([C@@H](C)O)NC1=O	ND83	-	0.06 µg/mL
Cc1cc(O)cc(O)c1C(=O)O[C@@H]1C[C@]2(C)[C@H]3[C@@H](O)C(C)(C)C[C@@]3(O)C=C(C=O)[C@]12O	Plpa59	-	>250 µg/mL
Cc1nc2c(s1)C(=O)C(Nc1ccc(I)cc1)=C(Cl)C2=O	KCCM 11899	-	6.3 µg/mL
C[C@@H]1C/C=C/C=C/C=C/C=C/[C@H](OC2O[C@H](C)[C@@H](O)[C@H](N)[C@@H]2O)CC2O[C@](O)(C[C@@H](O)C[C@H]3O[C@@H]3/C=C/C(=O)O1)C[C@H](O)[C@H]2C(=O)O	Clinical isolates	-	8–32 µg/mL
C[C@H]1[C@H](O)[C@@H](C)/C=C/C=C/C=C/C=C/C=C/C=C/C=C/[C@H](O[C@@H]2O[C@H](C)[C@@H](O)[C@H](N)[C@@H]2O)C[C@@H]2O[C@](O)(C[C@@H](O)C[C@@H](O)CC[C@H](O)[C@@H](O)C[C@@H](O)CC(=O)O[C@H]1C)C[C@H](O)[C@H]2C(=O)O	NBRC 4295	48 h	4 µg/mL
COc1ccc(NC2=C(Cl)C(=O)c3nc(C)sc3C2=O)cc1	KCCM 11899	-	1.6 µg/mL
CCC1/C=C/C=C/C=C/C=C/C(OC2OC(C)C(O)C(N)C2O)CC2OC(O)(CC(O)CC(O)C(O)/C=C/C(=O)OC1C)CC(O)C2C(=O)O	CGMCC 3.289	-	6.25 µg/mL
COC(=O)c1c(N)oc2c(C)c(C)c(O)c(Sc3cccc(C)c3)c12	KCCM 11899	-	25 µg/mL
C[C@H]1[C@H](O)[C@@H](C)/C=C/C=C/C=C/C=C/C=C/C=C/C=C/[C@H](O[C@@H]2O[C@H](C)[C@@H](O)[C@H](N)[C@@H]2O)C[C@@H]2O[C@](O)(C[C@@H](O)C[C@@H](O)CC[C@H](O)[C@@H](O)C[C@@H](O)CC(=O)O[C@H]1C)C[C@H](O)[C@H]2C(=O)O	F44	-	2 µg/mL
CCC(C)CC(C)CCCCCCCCC(=O)N[C@H]1C[C@@H](O)[C@H](NCCN)NC(=O)[C@@H]2[C@@H](O)CCN2C(=O)[C@H]([C@H](O)CCN)NC(=O)[C@H]([C@H](O)[C@@H](O)c2ccc(O)cc2)NC(=O)[C@@H]2C[C@@H](O)CN2C(=O)[C@H]([C@@H](C)O)NC1=O	CBS 625.66	-	128 µg/mL
Cc1nc2c(s1)C(=O)C(Nc1ccc(F)cc1)=C(Cl)C2=O	KCCM 11899	-	1.6 µg/mL

Again, the opening 2 rows:

smiles,strain or isolate,setting,value
CC1CCC2(OC1)OC1CC3C4CCC5C[C@@H](OC6OC(CO)C(OC7OC(CO)C(O)C(OC8CC(OC9OC(CO)C(O)C(O)C9O)C(O)C(CO)O8)C7OC7OC(CO)C(O)C(O)C7O)C(O)C6O)[C@H](O)C[C@]5(C)C4CC[C@]3(C)C1[C@@H]2C,-,-,30 µg/mL
CCCC[C@@H](C)/C=C(C)/C=C(\C)C(=O)N/C(=C/[C@@](C)(O)/C=C/C=C/C=C/C(=O)NC1=C(O)CCC1=O)C(=O)[C@@H]1CO1,1,-,200 µM